From US20240327339A1, “COMPOSITIONS AND METHODS FOR TREATING AND PREVENTING VIRAL INFECTIONS” (priority 2021, published 2024)

Test system: RSV A2
Assay: In vivo inhibition study, BALB/c mouse model of RSV infection
Parameters: species or system BALB/c mice

## CCCN(CCC)S(=O)(=O)c1ccc(C(=O)O)cc1 [Probenecid, 4-[(dipropylamino)sulfonyl] benzoic acid]
Females, Prophylactic 2 mg/kg, Day 3
  BAL cells/mL: 268750 cells/mL
Females, Prophylactic 2 mg/kg, Day 5
  BAL cells/mL: 256250 cells/mL
Females, Prophylactic 2 mg/kg, Day 7
  BAL cells/mL: 75000 cells/mL
Females, Prophylactic 200 mg/kg, Day 3
  BAL cells/mL: 308333.333 cells/mL
Females, Prophylactic 200 mg/kg, Day 5
  BAL cells/mL: 280000 cells/mL
Females, Prophylactic 200 mg/kg, Day 7
  BAL cells/mL: 125000 cells/mL
Females, Treatment 2 mg/kg, Day 3
  BAL cells/mL: 360000 cells/mL
Females, Treatment 2 mg/kg, Day 5
  BAL cells/mL: 270000 cells/mL
Females, Treatment 2 mg/kg, Day 7
  BAL cells/mL: 135000 cells/mL
Females, Treatment 200 mg/kg, Day 3
  BAL cells/mL: 312500 cells/mL
Females, Treatment 200 mg/kg, Day 5
  BAL cells/mL: 140000 cells/mL
Females, Treatment 200 mg/kg, Day 7
  BAL cells/mL: 91666.6667 cells/mL
Males, Prophylactic 2 mg/kg, Day 3
  BAL cells/mL: 125000 cells/mL
Males, Prophylactic 2 mg/kg, Day 5
  BAL cells/mL: 118750 cells/mL
Males, Prophylactic 2 mg/kg, Day 7
  BAL cells/mL: 90625 cells/mL
Males, Prophylactic 200 mg/kg, Day 3
  BAL cells/mL: 243750 cells/mL
Males, Prophylactic 200 mg/kg, Day 5
  BAL cells/mL: 293750 cells/mL
Males, Prophylactic 200 mg/kg, Day 7
  BAL cells/mL: 65625 cells/mL
Males, Treatment 2 mg/kg, Day 3
  BAL cells/mL: 193750 cells/mL
Males, Treatment 2 mg/kg, Day 5
  BAL cells/mL: 120000 cells/mL
Males, Treatment 2 mg/kg, Day 7
  BAL cells/mL: 87500 cells/mL
Males, Treatment 200 mg/kg, Day 3
  BAL cells/mL: 265000 cells/mL
Males, Treatment 200 mg/kg, Day 5
  BAL cells/mL: 145000 cells/mL
Males, Treatment 200 mg/kg, Day 7
  BAL cells/mL: 96875 cells/mL
